A mixed list of measured activities; the numbers were collected in NIAID ChemDB.

Common to all: whole-cell or culture tests; organism: HIV-1; method: cytopathic effect; endpoint: fold resistance

Rows are shuffled and stem from different studies. An empty or dashed field is not shown. Fold resistance: result on the changed form divided by that on wild type.

{"SMILES": "CCOCn1c(Cc2ccccc2)c(C(C)C)c(=O)[nH]c1=O", "strain": "Recombinant", "cells": "MT-4", "changes": "RT-P225H", "value": "5.7"}
{"SMILES": "Cc1ccnc(N2C(=O)CSC2c2c(Cl)cccc2Cl)n1", "cells": "CEM", "changes": "RT-Y188H", "value": "229.7"}
{"SMILES": "CC(C)=CCOc1cc(NC(=S)c2ccsc2C)ccc1Cl", "strain": "IIIB", "cells": "CEM", "changes": "RT-K103N", "value": "6.67"}
{"SMILES": "Cc1cn([C@H]2C=C[C@@H](CO)O2)c(=O)[nH]c1=O", "strain": "DI-06.92 (HXB2 RT-K70R)", "cells": "MT-4", "changes": "RT-K70R", "value": "7.6"}
{"SMILES": "Cc1cc(SC2=C(O)C[C@@](CCc3ccc(N)cc3)(C(C)C)OC2=O)c(C(C)(C)C)cc1CO", "cells": "CEM", "changes": "PR-L10I V31I I15V K20I L24I M36I S37N I54V R57K L63P A71V V82A", "value": "<1"}
{"SMILES": "Cc1ccnc2c1NC(=O)c1cccnc1N2C1CC1", "cells": "CEM", "changes": "RT-K103N", "value": "69"}
{"SMILES": "Cc1c(Sc2ccccc2)n(COCCO)c(=O)[nH]c1=O", "strain": "R82150 (RT-L100I)", "cells": "MT-2", "changes": "RT-L100I", "value": "3.48"}
{"SMILES": "CC(C)=CCOc1cc(NC(=S)c2ccoc2C)ccc1Cl", "strain": "Recombinant", "cells": "MT-4", "changes": "RT-V106A", "value": "30"}
{"SMILES": "Cc1cn([C@@H]2O[C@H](CO[Si](C)(C)C(C)(C)C)C3(OS(=O)(=O)C=C3N)[C@H]2O[Si](C)(C)C(C)(C)C)c(=O)n(C)c1=O", "strain": "TSAO-m3T-resistant", "cells": "CEM", "changes": "RT-E138K", "value": ">963"}
{"SMILES": "COc1cc(C)nc(N2C(=O)CSC2c2c(Cl)cccc2Cl)n1", "cells": "CEM", "changes": "RT-Y181C", "value": "164.6"}
{"SMILES": "O=C(O)P(=O)(O)O", "strain": "R82150 (RT-L100I)", "cells": "MT-2", "changes": "RT-L100I", "value": "1.14"}
{"SMILES": "Cc1cn([C@@H]2O[C@H](CO[Si](C)(C)C(C)(C)C)[C@]3(C(N)=CS(=O)(=O)N3C)[C@H]2O[Si](C)(C)C(C)(C)C)c(=O)n(C)c1=O", "cells": "CEM", "changes": "RT-Y181C", "value": ">100"}
{"SMILES": "O=c1[nH]cnc2c1ncn2[C@H]1CC[C@@H](CO)O1", "strain": "FO-08.96 (HXB2 RT F77L F116Y Q151M)", "cells": "MT-4", "changes": "RT-F77L F116Y Q151M", "value": "12.3"}
{"SMILES": "CC(C)=CCN1Cc2cccc3[nH]c(=S)n(c23)C[C@@H]1C", "strain": "R82150 (RT-L100I)", "cells": "MT-2", "changes": "RT-L100I", "value": ">150"}
{"SMILES": "Cc1cc(C)nc(N2C(=O)CSC2c2c(Cl)cccc2Cl)n1", "cells": "CEM", "changes": "RT-L100I", "value": "9.2"}
{"SMILES": "COc1ccc2c(c1)N(C(=O)OC(C)C)[C@@H](CSC)C(=S)N2", "strain": "Recombinant", "cells": "MT-4", "changes": "RT-V106A", "value": "13"}
{"SMILES": "CCCCCCCSc1nsc(NC(=O)Nc2ccccc2)n1", "strain": "NL4-3", "cells": "MT-4", "changes": "RT-K103N Y181C", "value": "2.28"}
{"SMILES": "Fc1cccc(F)c1C1SCc2nc3ccccc3n21", "cells": "CEM", "changes": "RT-L100I", "value": "2.24"}
{"SMILES": "CC(C)Nc1cccnc1N1CCN(C(=O)c2cc3cc(NS(C)(=O)=O)ccc3[nH]2)CC1", "strain": "E-2 (RT-V106A)", "cells": "CEM", "changes": "RT-V106A", "value": "15"}
{"SMILES": "CC[C@H]1C(=O)Nc2ccc(F)cc2N1C(=O)OC(C)C", "strain": "NNRTI-resistant", "cells": "CEM", "changes": "RT-Y181C", "value": "40.95"}
{"SMILES": "Cc1cn([C@H]2C[C@H](N=[N+]=[N-])[C@@H](CO)O2)c(=O)[nH]c1=O", "strain": "A-0 (RT-L100I)", "cells": "CEM", "changes": "RT-L100I", "value": "6"}
{"SMILES": "Cc1occc1C(=S)Nc1ccc(Cl)c(/C=N/OC(C)(C)C)c1", "strain": "IIIB", "cells": "CEM", "changes": "RT-L100I", "value": "8.13"}
{"SMILES": "Fc1cccc(F)c1C1SCc2nc3ccccc3n21", "cells": "CEM", "changes": "RT-Y188H", "value": "2.99"}
{"SMILES": "CC(C)=CCN1Cc2cc(Cl)cc3[nH]c(=O)n(c23)C[C@@H]1C", "strain": "Recombinant", "cells": "MT-4", "changes": "RT-V106A", "value": "17"}
{"SMILES": "Nc1ccn([C@H]2CC[C@@H](CO)O2)c(=O)n1", "strain": "R82150 (RT-L100I)", "cells": "MT-2", "changes": "RT-L100I", "value": "0.786"}
{"SMILES": "Cc1ccnc2c1NC(=O)c1cccnc1N2C1CC1", "strain": "A17-(RT-K103N Y181C) NNRTI-resistant", "cells": "MT-2", "changes": "RT-K103N Y181C", "value": "450"}
{"SMILES": "Cc1cn([C@H]2C[C@H](N=[N+]=[N-])[C@@H](CO)O2)c(=O)[nH]c1=O", "cells": "CEM", "changes": "RT-L100I", "value": "1.14"}
{"SMILES": "Cc1cn([C@@H]2O[C@H](CO[Si](C)(C)C(C)(C)C)[C@]3(C(N)=CS(=O)(=O)N3C)[C@H]2O[Si](C)(C)C(C)(C)C)c(=O)n(C(=O)OC(C)(C)C)c1=O", "cells": "CEM", "changes": "RT-E138K", "value": ">2.85"}
{"SMILES": "Cc1cn([C@@H]2O[C@H](CO[Si](C)(C)C(C)(C)C)C3(OS(=O)(=O)C(Br)=C3N)[C@H]2O[Si](C)(C)C(C)(C)C)c(=O)[nH]c1=O", "strain": "TSAO-m3T-resistant (RT E138K)", "cells": "CEM", "changes": "RT-E138K", "value": ">2.35"}
{"SMILES": "Cc1cn([C@@H]2O[C@H](CO[Si](C)(C)C(C)(C)C)[C@@]3(NS(=O)(=O)C=C3N)[C@H]2O[Si](C)(C)C(C)(C)C)c(=O)[nH]c1=O", "cells": "CEM", "changes": "RT-K103N", "value": "16.66"}
{"SMILES": "Cc1cn([C@@H]2O[C@H](CO[Si](C)(C)C(C)(C)C)C3(OS(=O)(=O)C(I)=C3N)[C@H]2O[Si](C)(C)C(C)(C)C)c(=O)[nH]c1=O", "strain": "TSAO-m3T-resistant (RT E138K)", "cells": "CEM", "changes": "RT-E138K", "value": ">33.3"}
{"SMILES": "Cc1cn([C@@H]2O[C@H](CO[Si](C)(C)C(C)(C)C)C3(OS(=O)(=O)C=C3N)[C@H]2O[Si](C)(C)C(C)(C)C)c(=O)n(C)c1=O", "strain": "IIIB", "cells": "CEM", "changes": "RT-K103N", "value": "7.33"}

Again, the opening 4 rows:

| SMILES | strain | cells | changes | value |
|---|---|---|---|---|
| CCOCn1c(Cc2ccccc2)c(C(C)C)c(=O)[nH]c1=O | Recombinant | MT-4 | RT-P225H | 5.7 |
| Cc1ccnc(N2C(=O)CSC2c2c(Cl)cccc2Cl)n1 |  | CEM | RT-Y188H | 229.7 |
| CC(C)=CCOc1cc(NC(=S)c2ccsc2C)ccc1Cl | IIIB | CEM | RT-K103N | 6.67 |
| Cc1cn([C@H]2C=C[C@@H](CO)O2)c(=O)[nH]c1=O | DI-06.92 (HXB2 RT-K70R) | MT-4 | RT-K70R | 7.6 |